Compound potency records, mixed from different reports. Data source: NIAID ChemDB in PubChem.

All rows: growth or infection tests; species: Candida albicans; read-out: MIC80

Neighbouring rows are from separate reports.

smiles | strain or isolate | method | result
N=C(N)c1ccc2nc(CCCCc3nc4ccc(C(=N)N)cc4[nH]3)[nH]c2c1 | A39 |  | >100 µg/mL
CCCCN(Cc1cn(Cc2ccc(Cl)cc2Cl)nn1)CC(O)(Cn1cncn1)c1ccc(F)cc1F | Y0109 |  | 4 µg/mL
C[C@@H](SC1COC(c2ccc(C(=O)Nc3ccc(C#N)cc3F)cc2)OC1)[C@](O)(Cn1cncn1)c1ccc(F)cc1F | SANK51486 |  | 0.008 µg/mL
CN(C)CCNC(=O)c1ccc(-c2ccc(-c3ccc(C(=O)NCCN(C)C)cc3)o2)cc1 | A39 |  | >100 µg/mL
N/C(=N\O)c1ccc(OCCCCCOc2ccc(/C(N)=N\O)cc2)cc1 | A39 |  | >100 µg/mL
C[C@@H](N1CCN(Cc2c[nH]c3ccccc23)CC1)[C@](O)(Cn1cncn1)c1ccc(F)cc1F | ATCC 64548 | resazurin | 0.5 µg/mL
OC(CN1CCN(c2ccc(OCc3ccncc3)cc2)CC1)(Cn1cncn1)c1ccc(F)cc1F | 304004 |  | ≤0.063 µg/mL
C[C@@H](N1CCN(Cc2cn(Cc3ccc(Cl)cc3Cl)c3c(Cl)cccc23)CC1)[C@](O)(Cn1cncn1)c1ccc(F)cc1F | ATCC MYA-1003 | resazurin | >128 µg/mL
CCCCCCCCOc1ccc(-c2ccc(C(=O)NC3CC(NCCN)CNC(=O)[C@@H]4[C@@H](O)[C@@H](C)CN4C(=O)[C@@H](CO)NC(=O)[C@H]([C@H](O)Cc4ccccc4)NC(=O)[C@@H]4C[C@@H](O)CN4C(=O)[C@H]([C@@H](C)O)NC3=O)cc2)cc1 | C26 (fluconazole-resistant) |  | 0.05 µg/mL
OC(Cn1cncn1)(Cn1cncn1)c1ccc(F)cc1F | TIMM3317 (azole-resistant) |  | >256 µg/mL
NC(=S)N/N=C/c1ccsc1/C=N/NC(N)=S | ATCC 66396 | broth dilution | >250 µg/mL
N=C(N)c1ccc(OCCCCC(=O)O)cc1 | A39 |  | >100 µg/mL
CCCCN(Cc1cn(Cc2ccccc2F)nn1)CC(O)(Cn1cncn1)c1ccc(F)cc1F | SC5314 |  | 1 µg/mL
N=C(N)c1ccc(OCCCCCOc2ccc(/C(N)=N\O)cc2)cc1 | A39 |  | >100 µg/mL
CCOC(=O)c1nc(NC(=O)c2nc(NC(=O)c3cc([N+](=O)[O-])cn3C)cn2C)cn1C | Y0109 (drug-susceptible) | broth dilution | >200 µg/mL
C[C@@H](N1CCN(Cc2cn(Cc3ccc(F)cc3F)c3c(Cl)cccc23)CC1)[C@](O)(Cn1cncn1)c1ccc(F)cc1F | ATCC 36082 | resazurin | 0.125 µg/mL
N/C(=N\O)c1ccc(OCCCCCOc2ccc(/C(N)=N/O)cc2)cc1 | A39 |  | >100 µg/mL
CCCCN(Cc1cn(Cc2ccc(Br)cc2)nn1)CC(O)(Cn1cncn1)c1ccc(F)cc1F | SC5314 |  | 4 µg/mL
CCCCCCCC(=O)Nc1ccc(N2CCN(CC(O)(Cn3cncn3)c3ccc(F)cc3F)CC2)c(F)c1 |  | broth dilution | 0.00097 µg/mL
C[C@@H](N1CCN(Cc2cn(Cc3ccc(F)cc3)c3ccccc23)CC1)[C@](O)(Cn1cncn1)c1ccc(F)cc1F | ATCC 90028 | resazurin | 2 µg/mL
C=C1CC[C@@H](C)[C@H]2[C@@H](C[C@H]3[C@@H]4CC=C5C[C@@H](O)CC[C@]5(C)[C@H]4CC[C@]23C)OC1=O |  |  | 23 µg/mL
N=C(N)c1ccc2nc(CCCc3nc4ccc(C(=N)N)cc4[nH]3)[nH]c2c1 | A39 |  | >100 µg/mL
CCCCN(Cc1cn(Cc2cccc(F)c2)nn1)CC(O)(Cn1cncn1)c1ccc(F)cc1F | SC5314 |  | <0.125 µg/mL
C[C@@H](N1CCN(Cc2cn(Cc3ccc(F)cc3F)c3cc(Cl)ccc23)CC1)[C@](O)(Cn1cncn1)c1ccc(F)cc1F | ATCC MYA-1003 | resazurin | 8 µg/mL
CCCCN(Cc1cn(Cc2ccccc2C#N)nn1)CC(O)(Cn1cncn1)c1ccc(F)cc1F | Y0109 |  | 16 µg/mL
Oc1ccc2c(c1)CCc1ccc(cc1)Oc1cc(ccc1O)CCc1cccc(O)c1-2 | CA2 | broth dilution | 16 µg/mL
NC(N)=NCc1ccc(OCCC2(Cc3cccc(Cl)c3)CCCCC2)cc1 | CAF2-1 |  | 2.5–5 µg/mL
N=C(N)c1ccc(OCCCCCCOc2ccc(C(=N)N)cc2)cc1 | A39 |  | 1.58 µg/mL
CC(c1cccs1)C(O)(Cn1cncn1)c1ccc(Cl)cc1Cl |  |  | 8 µg/mL
CCCCN(Cc1cn(Cc2cccc([N+](=O)[O-])c2)nn1)CC(O)(Cn1cncn1)c1ccc(F)cc1F | Y0109 |  | 4 µg/mL
N=C(N)c1ccc(OCCCC(O)COc2ccc(C(=N)N)cc2)cc1 | 102.96 |  | 12.5 µg/mL
CCCCN(Cc1cn(Cc2ccc(F)cc2)nn1)CC(O)(Cn1cncn1)c1ccc(F)cc1F | SC5314 |  | <0.125 µg/mL
CC(=O)c1ccc2c(c1)N(CC(O)(Cn1cncn1)c1ccc(F)cc1F)C(=O)CO2 | ATCC 24433 | broth dilution | >128 µg/mL
CCCCN(Cc1cn(Cc2cccc(Cl)c2)nn1)CC(O)(Cn1cncn1)c1ccc(F)cc1F | Y0109 |  | 16 µg/mL
C[C@@H](N1CCN(Cc2cn(Cc3ccc(Cl)cc3Cl)c3cc(Cl)ccc23)CC1)[C@](O)(Cn1cncn1)c1ccc(F)cc1F | ATCC 90028 | resazurin | 0.125 µg/mL

A second listing of 2 rows from above:

| smiles | strain or isolate | method | result |
|---|---|---|---|
| N=C(N)c1ccc(OCCCCCCOc2ccc(C(=N)N)cc2)cc1 | A39 |  | 1.58 µg/mL |
| CCCCN(Cc1cn(Cc2cccc(Cl)c2)nn1)CC(O)(Cn1cncn1)c1ccc(F)cc1F | Y0109 |  | 16 µg/mL |

Two numbers with a dash give a range or band. An empty or dashed field is not shown. A number after MIC or MFC names an inhibition level or a share of isolates.